# Deep mutational scan of the Zika virus protease

Data from the supplement of Ni et al. 2025, doi:10.1038/s41467-025-63602-z.

Chain scanned (Zika virus MR766; NS2B from position 2 to 131, then the start of NS3):
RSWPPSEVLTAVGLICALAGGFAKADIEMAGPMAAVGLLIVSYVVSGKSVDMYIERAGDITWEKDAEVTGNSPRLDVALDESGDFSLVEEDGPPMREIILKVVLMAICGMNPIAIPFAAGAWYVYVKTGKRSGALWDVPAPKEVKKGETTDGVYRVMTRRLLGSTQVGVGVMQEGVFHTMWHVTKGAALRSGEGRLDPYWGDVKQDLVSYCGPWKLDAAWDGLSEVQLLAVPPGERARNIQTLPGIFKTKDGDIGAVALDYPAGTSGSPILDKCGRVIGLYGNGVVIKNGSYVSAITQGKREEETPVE

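Mutant virus pools were grown in human Huh-7.5 cells. The effect is the change in frequency of a mutant, normalised to wild type, as a mean of three replicate libraries (two for positions 207-308). The study looked for pockets that tolerate few changes, as a guide for inhibitor design.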

Scale: log2 effect, wild type = 0; the lower, the more harmful to the virus. Substitutions are written as wild-type residue, site number, new residue. Position 1 still belongs to NS2A. In the paper, -1 or higher counts as tolerated. An asterisk is a stop codon; stop codons read about -7, near the floor of the assay. The region was split into three libraries (1-103, 104-206, 207-308). Values above 0 are not proof of better growth: six high scorers were tested one by one, five grew less well than wild type and one about as well.

| # | change | log2 growth effect |
|---|---|---|
| 1 | C274V | -0.63 |
| 2 | M95H | -3.88 |
| 3 | A66D | -6.08 |
| 4 | A230I | -3.56 |
| 5 | F177L | -4.40 |
| 6 | P5V | -6.29 |
| 7 | W220A | -6.48 |
| 8 | E225* | -8.59 |
| 9 | L228P | -5.65 |
| 10 | A187P | -6.30 |
| 11 | G20M | -3.40 |
| 12 | A258P | -6.64 |
| 13 | S6* | -7.57 |
| 14 | A237* | -5.86 |
| 15 | S191G | -5.74 |
| 16 | E97W | -4.18 |
| 17 | E89P | -3.05 |
| 18 | K127V | -6.82 |
| 19 | T10C | -0.57 |
| 20 | A237H | -0.62 |
| 21 | K48T | -5.17 |
| 22 | C16L | -6.03 |
| 23 | L196W | -5.37 |
| 24 | I240D | -6.26 |
| 25 | Q166V | -6.35 |
| 26 | L161V | -2.50 |
| 27 | G279Q | -4.84 |
| 28 | G58L | -7.59 |
| 29 | P198* | -8.36 |
| 30 | G37F | -3.67 |
| 31 | V44E | -5.22 |
| 32 | L161N | -4.59 |
| 33 | D84T | -7.62 |
| 34 | Q298C | -4.90 |
| 35 | D206V | -7.33 |
| 36 | I115S | -6.52 |
| 37 | S2V | -7.55 |
| 38 | S191* | -7.09 |
| 39 | A11H | -6.28 |
| 40 | F247D | -5.72 |
| 41 | L243I | -0.57 |
| 42 | M52N | -5.87 |
| 43 | Y154W | -5.57 |
| 44 | P112G | -5.77 |
| 45 | I27Y | -3.64 |
| 46 | T149N | -3.95 |
| 47 | V171R | -6.88 |
| 48 | T61S | -0.24 |
| 49 | R74P | -7.47 |
| 50 | R1K | -4.09 |
| 51 | G133L | -7.11 |
| 52 | M33G | -0.64 |
| 53 | S2W | -7.40 |
| 54 | A78K | 0.43 |
| 55 | P32I | -4.73 |
| 56 | T184* | -7.75 |
| 57 | N71L | -6.57 |
| 58 | P269S | -5.97 |
| 59 | S49D | -5.62 |
| 60 | P306G | -2.19 |
| 61 | V167H | -4.98 |
| 62 | G275V | -5.54 |
| 63 | G21L | -7.11 |
| 64 | F247H | -5.60 |
| 65 | T265A | -4.98 |
| 66 | D76C | 0.15 |
| 67 | I107N | -5.16 |
| 68 | P141A | -6.04 |
| 69 | T249A | -6.22 |
| 70 | A19V | -3.84 |
| 71 | R74W | -6.69 |
| 72 | G83A | -7.35 |
| 73 | A19W | -6.26 |

Extract of 4 entries:

With Q298C the assay gave -4.90.
With A237H the assay gave -0.62.
With T149N the assay gave -3.95.
With C16L the assay gave -6.03.